For the assay, the target named is full-length NS3/NS4A complex (Hepatitis C virus genotype 1a, UniProt P27958). Conditions: read-out: NS3 IC50; enzyme 50 nM, substrate 100 nM, 37° C., 40 minutes.

Amino acid sequences for entries named in this document (tags omitted). Residues count along the entry.
UniProt P27958, 1027-1657 limits assumed: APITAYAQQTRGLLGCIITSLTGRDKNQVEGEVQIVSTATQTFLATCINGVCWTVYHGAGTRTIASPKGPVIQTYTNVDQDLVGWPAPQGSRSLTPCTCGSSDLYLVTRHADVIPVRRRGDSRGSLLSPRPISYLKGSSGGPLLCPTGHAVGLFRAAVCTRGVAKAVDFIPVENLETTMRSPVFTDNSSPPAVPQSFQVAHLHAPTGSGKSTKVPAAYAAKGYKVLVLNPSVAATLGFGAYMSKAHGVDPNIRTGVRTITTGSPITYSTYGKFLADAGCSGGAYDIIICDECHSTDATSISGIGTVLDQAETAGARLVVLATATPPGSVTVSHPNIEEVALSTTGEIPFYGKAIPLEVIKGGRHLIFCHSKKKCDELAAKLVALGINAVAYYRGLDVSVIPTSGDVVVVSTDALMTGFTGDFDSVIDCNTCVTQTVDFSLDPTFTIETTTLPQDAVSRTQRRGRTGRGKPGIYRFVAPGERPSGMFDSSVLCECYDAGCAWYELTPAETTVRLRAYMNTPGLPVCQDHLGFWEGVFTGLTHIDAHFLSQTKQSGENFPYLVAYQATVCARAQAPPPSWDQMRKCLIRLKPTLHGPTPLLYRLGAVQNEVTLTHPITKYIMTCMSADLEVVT
UniProt P27958, 1658-1711 partner limits assumed: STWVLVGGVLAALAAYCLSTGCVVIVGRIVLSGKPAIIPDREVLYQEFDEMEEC

SMILES strings stand for the structures.

Broadly, the IC50 is the point on the concentration scale where inhibition reaches its midpoint. `CC[C@H](NC(=O)[C@@H]1C[C@@H](OC(C)(C)C)CN1C(=O)[C@@H](NC(=O)[C@@H]1C[C@@H](OC(C)(C)C)CN1C(=O)[C@@H](NC(C)=O)C(C)C)C(C)C)C(=O)O`: the IC50 is 500 nM.
